Results of unrelated studies side by side (data: NIAID ChemDB).

All rows: growth or infection tests; species: Mycobacterium tuberculosis

ECn is the concentration giving n% inhibition of infection, replication or growth. Percent inhibition refers to the dose given; in toxicity tests it is the harm to the cells. MIC50, MIC90 and the like: level of inhibition, or share of isolates inhibited. Blank or dashed fields: not listed here. Neighbouring rows are from separate reports. MIC bound comes from a single tested concentration.

compound | mutations | cell line | method | strain | dose | setting | measure | value
Oc1ccc(Br)cc1 |  |  |  | H37Rv |  |  | MIC | 100 µg/mL
Cc1ccc(N2CCN(CCCN3CCN(c4ccc(C)cc4)CC3)CC2)cc1 |  |  | resazurin | H37Rv |  |  | MIC bound | >6.25 µg/mL
COc1ccc2c(c1OC)C(=O)OC2c1ccc(O)c(Br)c1 |  |  |  | H37Rv |  |  | MIC | >100 µg/mL
Cc1ccc(NC(=O)C(Cl)Cl)cc1Cl |  |  | BACTEC | H37Rv | 12.5 µg/mL |  | inhibition | 99%
NC(=O)N/N=C1\CCSC1CCCOc1ccccc1 |  |  |  | H37Rv |  |  | MIC | >100 µg/mL
CC(C)c1ccc(NC(=O)NNC(=O)c2ccncc2)cc1 |  |  | broth dilution | My 331/88 |  | 21 d | MIC100 | 32 µM
COc1ccc(C2CC(=O)c3cc(C(=O)O)ccc3O2)cc1 |  |  |  |  | 12.5 µg/mL |  | inhibition | 2%
CCCCC(CC)CN1CN(CC(CC)CCCC)CC(C)(NCCNCCc2ccc(F)cc2)C1 |  |  |  |  |  |  | MIC | 12.5 µM
NNC(=O)c1ccncc1 |  |  |  | 1620-6 |  |  | MBC | 0.05 µg/mL
c1ccc(CCCNCCNCCN2CCOCC2)cc1 |  |  |  |  |  |  | MIC | 50 µM
O=C1NC(=O)C2CCCCC12 |  |  |  | H37Rv |  |  | MIC | >100 µg/mL
CCCCn1c(-c2ccc(F)cc2)cs/c1=N\NC(=O)COc1cnccn1 |  |  |  | H37Rv |  |  | MIC | 15 µg/mL
C[C@]1(COc2ccc(N3CCC(Oc4ccc(OC(F)(F)F)cc4)CC3)cc2)Cn2cc([N+](=O)[O-])nc2O1 |  |  |  | H37Rv (INH-resistant) |  |  | MIC | 0.012 µg/mL
O=c1cc(-c2cccc(-c3ccc4c(=O)cc(-c5ccccc5)oc4c3)c2)oc2ccccc12 |  |  |  | H37Rv |  |  | EC50 | >12.5 µg/mL
COc1ccc2ccccc2c1/C=N/Nc1ccnc2cc(Cl)ccc12 |  | VERO |  | H37Rv |  |  | MIC | 6.25 µg/mL
CC(C)CN1C(=O)CS/C1=N\NC(=O)COc1cnccn1 |  |  |  | H37Rv |  |  | MIC | 128 µg/mL
Cc1[nH]nc(C(=O)N/N=C/c2ccccc2Cl)c1N=NN(C)C |  |  | BACTEC | H37Rv | 12.5 µg/mL |  | inhibition | 100%
CCn1c(-c2cc3cc(Br)ccc3oc2=O)cs/c1=N\N=C\c1ccc(Cl)cc1 |  |  |  | H37Rv | 12.5 µg/mL |  | inhibition | 63%
O=C(O)CNc1ccccc1 |  |  |  | H37Rv |  |  | MIC | 50 µg/mL
COc1ccc(CNNC(=O)c2cc[n+]([B]C#N)cc2)cc1OC |  |  |  | H37Rv |  |  | MIC | 0.39 µg/mL
CCCCCCCCCCCNCCNCCc1ccccc1F |  |  |  |  |  |  | MIC | 50 µM
C/C(=N\NC(=O)c1ccncc1)c1ccc(F)cc1 |  |  |  | Thiacetazone-resistant |  |  | MIC | >1.6 µg/mL
Cc1cc(NN)c2ccc(Cl)cc2n1 |  | VERO |  | H37Rv | 12.5 µg/mL |  | inhibition | 97%
O=C(NNC(=O)c1ccncc1)Nc1ccc(Cl)c(C(F)(F)F)c1 |  |  | broth dilution | My 331/88 |  | 21 d | MIC100 | 32 µM
Cc1ccccc1S(=O)(=O)N1C(=O)c2ccccc2S1(=O)=O |  |  | BACTEC | H37Rv | 12.5 µg/mL |  | inhibition | 0%
Nc1c(Cl)cc(Cl)c(O)c1Cl |  |  |  | H37Rv |  |  | MIC | >100 µg/mL
O=C(NNCc1cccc(C(F)(F)F)c1)c1ccncc1 |  |  |  | Rifampicin-resistant |  |  | MIC | 0.39 µg/mL
O=C(COc1cnccn1)N/N=c1\scc(-c2ccc(F)cc2)n1-c1ccc(Cl)cc1[N+](=O)[O-] |  |  |  | H37Rv |  |  | MIC | 6.1 µg/mL
CCCCc1ccc2nc(C)cc(NN)c2c1 |  | VERO |  | H37Rv |  |  | MIC | 6.25 µg/mL
CCCCCCCNC(=O)NNC(=O)c1ccncc1 |  |  | broth dilution | My 331/88 |  | 21 d | MIC100 | 32 µM
O=[N+]([O-])c1ccc(O)c([N+](=O)[O-])c1 |  |  |  | H37Rv |  |  | MIC | 100 µg/mL
COc1ccc(OC)c(CCNCCNCC(c2ccccc2)c2ccccc2)c1 |  |  |  |  |  |  | MIC | 6.25 µM
Cc1nnc(S(=O)(=O)c2ccc(N=Nc3c(N)nc(N)nc3N)cc2)s1 |  |  | BACTEC | H37Rv | 12.5 µg/mL |  | inhibition | 33%
C=CCn1c(-c2cc3ccccc3oc2=O)cs/c1=N\N=C\c1ccc(Cl)cc1 |  |  |  | H37Rv |  |  | MIC | >12.5 µg/mL
C[n+]1cccc(C(N)=O)c1.[Cl-] |  |  |  | H37Rv |  |  | MIC | >100 µg/mL
COc1ccc(/C=N/Nc2ccnc3cc(Cl)ccc23)c2ccccc12 |  | VERO |  | H37Rv |  |  | MIC | 3.13 µg/mL
CC(=O)NC[C@H]1CN(c2ccc(N3CCOCC3)c(F)c2)C(=O)O1 | T460C Cys154Arg |  |  | linezolid resistant 8.1 |  |  | MIC | 16 µg/mL
COc1ccc(C2C3=CONC3CC3CCCCC32)cc1 |  |  | BACTEC | H37Rv |  |  | MIC bound | >12.5 µg/mL
CC1COc2c(N3CCN(C)CC3)c(F)cc3c(=O)c(C(=O)O)cn1c23 |  |  | broth dilution | Ofloxacin-resistant 12119 |  |  | MIC | >4 µg/mL
Oc1ccc([S+](c2ccc(O)cc2)c2ccc(O)cc2)cc1.[Cl-] |  |  |  | H37Rv |  |  | MIC | >100 µg/mL
CO[C@H]1/C=C/O[C@@]2(C)Oc3c(C)c(O)c4c(O)c(c5c(c4c3C2=O)NC2(CCN(CC(C)C)CC2)N=5)=NC(=O)/C(C)=C\C=C\[C@H](C)[C@H](O)[C@@H](C)[C@@H](O)[C@@H](C)[C@H](OC(C)=O)[C@@H]1C |  |  |  | CSU27 |  |  | MIC | ≤0.125 µg/mL
CCn1c(-c2cc3ccccc3oc2=O)cs/c1=N\N=C\c1cc(Br)ccc1O |  |  |  | H37Rv |  |  | MIC | >12.5 µg/mL
COc1ccc(/C=C/C(=O)c2cc(Cl)ccc2O)cc1 |  |  |  |  |  |  | EC50 | >12.5 µg/mL
CCN1CCC(CCOC)(CN2c3ccccc3Sc3ccc(Cl)cc32)C1.Cl |  | VERO | BACTEC | H37Rv |  |  | MIC | 6.25 µg/mL
O=Cc1ccccc1O |  |  |  | H37Rv |  |  | MIC | >100 µg/mL
S=C(Nc1ccc(N=Nc2ccccc2)cc1)SCc1ccccc1 |  |  | BACTEC | H37Rv |  |  | MIC | 64 µg/mL
O=C(N/N=C/c1cccc(C(F)(F)F)c1)c1ccncc1 |  |  |  | H37Rv |  |  | MIC | 0.1 µg/mL
C=CCc1ccc(OC(=O)/C=C/c2ccccc2)c(OC)c1 |  |  |  | H37Rv |  |  | MIC | >100 µg/mL
C=CCNCCNCCCCCCCCCCC |  |  |  |  |  |  | MIC | 50 µM
CC1CN(c2c(F)cc3c(=O)c(C(=O)O)cn(C4CC4)c3c2F)CCN1 |  |  |  | Erdman |  |  | MIC | ≤0.125 µg/mL
Nc1cc(O)c(C(=O)O)c(O)c1 |  |  |  | H37Rv |  |  | MIC | 100 µg/mL
C[C@H]1COc2c(N3CCN(C)CC3)c(F)cc3c(=O)c(C(=O)O)cn1c23 |  |  |  | 001-012 (drug-resistant) |  |  | MIC | 0.75 µg/mL
CCCCOc1ccc2nc(C)cc(NN)c2c1 |  | VERO |  | H37Rv |  |  | MIC | 6.25 µg/mL
COc1ccc(-c2cs/c(=N\NC(=O)COc3cnccn3)n2-c2ccc(Cl)cc2Cl)cc1 |  |  |  | H37Rv |  |  | MIC | 9.6 µg/mL
CCN(CC)c1ccc(/C=N/Nc2cc(C)nc3cc(Cl)ccc23)cc1 |  | VERO |  | H37Rv |  |  | MIC | 6.25 µg/mL
COc1ccc(Nc2nnc(-c3ccncc3)o2)cc1 |  |  | broth dilution | My 331/88 |  | 14 d | MIC100 | >125 µM
Cc1ccc2nnc(NS(=O)(=O)c3cc(C)c(Cl)cc3S)n2n1 |  |  | BACTEC | H37Rv | 12.5 µg/mL |  | inhibition | 0%
Cc1cc(NN)c2cc(C3CCCCC3)ccc2n1 |  | VERO |  | H37Rv |  |  | MIC | 6.25 µg/mL
NNC(=O)c1ccncc1 | T460C Cys154Arg |  |  | AZD5847-resistant 4.1 |  |  | MIC | 0.06 µg/mL
CCCCCCCCCCCNCCNCC(c1ccccc1)c1ccccc1 |  |  |  |  |  |  | MIC | 12.5 µM
COc1ccc(/C(CC2(O)C(=O)Nc3c(C)cc(Cl)cc32)=N/NC(=O)C(=O)NN)cc1 |  |  | BACTEC | H37Rv | 12.5 µg/mL |  | inhibition | 23%
CO[C@H]1/C=C/O[C@@]2(C)Oc3c(C)c(O)c4c(O)c(c(/C=N/N5CCN(C6CCCC6)CC5)c(O)c4c3C2=O)NC(=O)/C(C)=C\C=C\[C@H](C)[C@H](O)[C@@H](C)[C@@H](O)[C@@H](C)[C@H](OC(C)=O)[C@@H]1C |  |  |  | L191 |  |  | MIC | 0.1 µg/mL
Nc1ccc(S(=O)(=O)c2ccc(N)c(Cl)c2)cc1 |  |  |  | H37Rv |  |  | MIC | 100 µg/mL
COC(=O)c1n[nH]c(C)c1N=NN1CCC(C(N)=O)CC1 |  |  | resazurin | H37Rv | 6.25 µg/mL |  | inhibition | 96%
C/C=C1\C(=O)O[C@]23C=C[C@@H]4C(C(=O)OC)=CO[C@H](O[C@@H]12)[C@@H]43 |  |  | MTT | MDR1 clinical isolate |  |  | MBC | 3.6 µg/mL
O=C1c2ccccc2C(=O)c2cc(C[P+](c3ccccc3)(c3ccccc3)c3ccccc3)ccc21 |  |  | resazurin | H37Rv |  |  | MIC | 2 µg/mL
O=C(NNC(=O)c1ccncc1)Nc1ccc(F)cc1Br |  |  | broth dilution | My 331/88 |  | 14 d | MIC100 | 16 µM
CC(=O)N1c2ccccc2S(=O)c2cc([N+](=O)[O-])ccc21 |  |  |  | H37Rv |  |  | MIC | >100 µg/mL
CC(NNC(=O)c1ccncc1)c1ccc(Cl)c(Cl)c1 |  |  |  | Isoniazid-resistant |  |  | MIC | >50 µg/mL
C[C@H](NCCNCCC(c1ccccc1)c1ccccc1)C1CCCCC1 |  |  |  |  |  |  | MIC | 6.25 µM
CCOc1cc(/C=N/N=c2\scc(-c3cc4cc(Br)ccc4oc3=O)n2C2CCCCC2)ccc1O |  |  |  | H37Rv |  |  | MIC | >12.5 µg/mL
CCOc1ccc2c(N/N=C/c3ccc(N(CC)CC)cc3)ccnc2c1 |  | VERO |  | H37Rv | 12.5 µg/mL |  | inhibition | 100%
S=c1nc[nH]c2c1ccc1[nH]cnc12 |  |  | BACTEC | H37Rv |  |  | MIC bound | >12.5 µg/mL
C[C@H]1COc2c(N3CCN(C)CC3)c(F)cc3c(=O)c(C(=O)O)cn1c23 |  |  |  | CSU18 |  |  | MIC | ≤0.125 µg/mL
CC(=O)OCC(=O)c1ccc[nH]1 |  |  |  | H37Rv |  |  | MIC | >100 µg/mL
CC1(C)CC(=O)OC/C=C\CC(Cc2ccccc2)C(=O)C1 |  |  | BACTEC | H37Rv |  |  | MIC bound | >12.5 µg/mL
O=c1oc2ccccc2cc1-c1cs/c(=N/N=C/c2ccc(Cl)cc2)n1C1CCCCC1 |  |  |  | H37Rv | 12.5 µg/mL |  | inhibition | 75%
CCCCC(CC)CN1CN(CC(CC)CCCC)CC(C)(NCCNC2CCc3ccccc32)C1 |  |  |  |  |  |  | MIC | 25 µM
ClC(Cl)(Cl)C(c1ccc2ccccc2c1)c1ccc2ccccc2c1 |  |  |  | H37Rv |  |  | MIC | >100 µg/mL
CC(NNC(=O)c1ccncc1)c1cccc(F)c1 |  |  |  | H37Rv |  |  | MIC | 1.6 µg/mL
CC(CCC/C=C/CCCN(C)C(=N)N)CC(C)C1OC(=O)C(C)C(O)/C=C/C(C)C(O)C(C)C(O)C(C)C(O)CCCC(O)CC2(O)OC(CC(OC(=O)CC(=O)O)CC(O)CC(O)C(C)C(O)/C=C/C=C/C1C)CC(O)C2O |  |  | BACTEC | H37Rv |  |  | MIC | ≥12.8 µg/mL
Oc1cccc(NC(=S)Nc2cccc(O)c2)c1 |  |  |  | H37Rv |  |  | MIC | 100 µg/mL
CCCC(=O)C(CC)C(=O)C(=O)Nc1nc([N+](=O)[O-])cs1 |  |  | resazurin | H37Rv | 6.25 µg/mL |  | inhibition | -4%
CO[C@H]1/C=C/O[C@@]2(C)Oc3c(C)c(O)c4c(O)c(c(/C=N/N5CCN(C/C=C/c6ccccc6)CC5)c(O)c4c3C2=O)NC(=O)/C(C)=C\C=C\[C@H](C)[C@H](O)[C@@H](C)[C@@H](O)[C@@H](C)[C@H](OC(C)=O)[C@@H]1C |  |  |  | 2225 (MDR) |  |  | MIC | 8 µg/mL
O=c1c2ccccc2oc2nc3cc(Cl)ccc3n12 |  |  |  | H37Rv |  |  | MIC bound | >6.25 µg/mL
COc1ccc(NC=O)c([N+](=O)[O-])c1 |  |  |  | H37Rv |  |  | MIC | 50 µg/mL
CC1NC(=O)C(NC(=O)OCc2ccccc2)COC(=O)C(C(C)C)NC(=O)CCCCNC1=O |  |  | resazurin | H37Rv | 6.25 µg/mL |  | inhibition | -6%
OCCCOc1ccccc1 |  |  |  | H37Rv |  |  | MIC | 1000 µg/mL
O=C1CN(c2ccccc2)C(=O)CN1NCNN1CC(=O)N(c2ccccc2)CC1=O |  |  | BACTEC | H37Rv | 12.5 µg/mL |  | inhibition | 0%
Nc1cccc(-c2csc(N)n2)c1 |  |  |  | H37Rv |  |  | MIC | 100 µg/mL
CN(C)C(=S)SCNc1ccc(NCSC(=S)N(C)C)cc1 |  |  | BACTEC | H37Rv | 128 µg/mL |  | inhibition | 100%
O=C(O)c1cn(C2CC2)c2c(F)c(N3CCSCC3)c(F)cc2c1=O |  |  |  | CSU22 |  |  | MIC | 1 µg/mL
CC(O)C(NC(=O)C(CCCN)NC(=O)C(CC(O)CN=C(N)N)NC(=O)C(N)CCCN=C(N)N)C(=O)NC(CCCN)C(=O)NC(CC(O)CN=C(N)N)C(=O)NC(Cc1ccc(O)cc1)C(=O)O |  |  | BACTEC | H37Rv |  |  | MIC bound | >12.5 µg/mL
Nc1ncccc1/C=C/C(=O)c1cc2ccccc2cc1O |  |  |  |  |  |  | EC50 | >12.5 µg/mL